Test results taken from publication PMC9330476 (Toxins, 2022).

What was measured:
[1] = biological target: m(α1)2β1δε nAChR (mouse adult muscle) (Mus musculus, UniProt P02716+P04756+P09690+P20782); assay: Two-electrode voltage clamp, inhibition of ACh-evoked currents, mouse adult muscle nAChR in Xenopus oocytes; details: 600 nM, 5 min incubation then washout, agonist stimulation at one-minute intervals
[2] = test system: nAChR subtypes (hα7, hα4β2, hα3β2, m(α1)2β1δγ, and m(α1)2β1δε); assay: Two-electrode voltage clamp, nAChR subtype panel in Xenopus oocytes
[3] = biological target: m(α1)2β1δγ nAChR (mouse fetal muscle) (Mus musculus, UniProt P02716+P04756+P04760+P09690); assay: Two-electrode voltage clamp, inhibition of ACh-evoked currents, mouse fetal muscle nAChR in Xenopus oocytes; format: cell-based; details: 600 nM, 5 min incubation then washout, agonist stimulation at one-minute intervals

Question: With `CC[C@H](C)[C@H](NC(=O)[C@H](CCCNC(=N)N)NC(=O)[C@H](C)NC(=O)[C@@H](N)CCC(=O)O)C(=O)N[C@H](C(=O)N[C@H]1CSSC[C@@H]2NC(=O)[C@H](CSSC[C@@H]3NC(=O)[C@H](Cc4ccc(O)cc4)NC(=O)[C@H](CC(N)=O)NC(=O)CNC(=O)[C@H](CSSC[C@@H]4NC(=O)[C@H](CCCNC(=N)N)NC(=O)[C@@H]5CSSC[C@@H](C(=O)O)NC(=O)[C@H](CO)NC(=O)[C@H](CSSC[C@H](NC3=O)C(=O)N[C@@H](Cc3ccc(O)cc3)C(=O)N[C@@H](CCCCN)C(=O)N[C@@H](Cc3c[nH]cn3)C(=O)NCC(=O)N5)NC(=O)CNC(=O)[C@H](Cc3c[nH]cn3)NC(=O)CNC(=O)[C@H](CCCNC(=N)N)NC(=O)[C@H](Cc3c[nH]c5ccccc35)NC(=O)[C@H](CO)NC(=O)[C@H](Cc3c[nH]cn3)NC(=O)[C@H](Cc3ccc(O)cc3)NC(=O)[C@H](C(C)C)NC4=O)NC(=O)[C@H](CCSC)NC(=O)[C@H](CCC(N)=O)NC(=O)[C@H]([C@@H](C)O)NC(=O)[C@H](CC(C)C)NC2=O)NC(=O)[C@H](CCCNC(=N)N)NC(=O)CNC(=O)[C@H](Cc2c[nH]c3ccccc23)NC(=O)[C@H](CCCCN)NC(=O)[C@H](CO)NC(=O)[C@H](CCCNC(=N)N)NC(=O)CNC(=O)[C@H](CCCNC(=N)N)NC(=O)[C@@H]2CCCN2C(=O)[C@H](CCC(N)=O)NC(=O)[C@@H](NC(=O)[C@@H](NC(=O)[C@@H](NC(=O)[C@H](CCCNC(=N)N)NC(=O)[C@H](C)NC(=O)[C@@H](N)CCC(=O)O)[C@@H](C)CC)[C@@H](C)O)CSSC[C@@H]2NC(=O)[C@H](CSSC[C@@H]3NC(=O)[C@H](Cc4ccc(O)cc4)NC(=O)[C@H](CC(N)=O)NC(=O)CNC(=O)[C@H](CSSC[C@@H]4NC(=O)[C@H](CCCNC(=N)N)NC(=O)[C@@H]5CSSC[C@@H](C(=O)O)NC(=O)[C@H](CO)NC(=O)[C@H](CSSC[C@H](NC3=O)C(=O)N[C@@H](Cc3ccc(O)cc3)C(=O)N[C@@H](CCCCN)C(=O)N[C@@H](Cc3c[nH]cn3)C(=O)NCC(=O)N5)NC(=O)CNC(=O)[C@H](Cc3c[nH]cn3)NC(=O)CNC(=O)[C@H](CCCNC(=N)N)NC(=O)[C@H](Cc3c[nH]c5ccccc35)NC(=O)[C@H](CO)NC(=O)[C@H](Cc3c[nH]cn3)NC(=O)[C@H](Cc3ccc(O)cc3)NC(=O)[C@H](C(C)C)NC4=O)NC(=O)[C@H](CCSC)NC(=O)[C@H](CCC(N)=O)NC(=O)[C@H]([C@@H](C)O)NC(=O)[C@H](CC(C)C)NC2=O)NC(=O)[C@H](CCCNC(=N)N)NC(=O)CNC(=O)[C@H](Cc2c[nH]c3ccccc23)NC(=O)[C@H](CCCCN)NC(=O)[C@H](CO)NC(=O)[C@H](CCCNC(=N)N)NC(=O)CNC(=O)[C@H](CCCNC(=N)N)NC(=O)[C@@H]2CCCN2C(=O)[C@H](CCC(N)=O)NC1=O)[C@@H](C)O` [αD-FrXXA] as the molecule, how does the “reversibility on adult muscular nAChR” value [1] read?
Answer: slightly reversible

Question: What about the “IC50 range for all subtypes of nAChRs” value ([2]; concentration-response curves, Xenopus oocytes) of the same molecule?
Answer: in the order of nM for all subtypes of nAChRs

Question: And the “affinity preference among nAChR subtypes” value ([2]; hα7 versus the other subtypes, from IC50s)?
Answer: higher affinity for the neuronal α7 nAChR subtype

Question: And the “preference against neuronal rather than muscular nAChRs” value ([2]; neuronal versus muscular nAChRs)?
Answer: slightly inhibitory activity preference against neuronal rather than muscular nAChRs

Question: And the “reversibility on fetal muscular nAChR” value [3]?
Answer: slightly reversible

Only a part of the results on these compounds is given; other tests are left out.
